Key:
nerve-muscle preparation = assay: Frog nerve-muscle preparation, motor nerve electrically stimulated
[1] = test system: frog cutaneus pectoris muscle; assay: Directly-evoked action potentials in frog cutaneus pectoris muscle (extracellular recording, partitioned chamber)
[2] = target: rat Type II sodium channel α-subunit (Rattus norvegicus, UniProt P04775)
fish = assay: Paralysis in fish by the synthetic peptide; conditions: pure synthetic peptide

By UniProt entry, the sequences of proteins in these tests, tags left out.
UniProt P04775, whole entry: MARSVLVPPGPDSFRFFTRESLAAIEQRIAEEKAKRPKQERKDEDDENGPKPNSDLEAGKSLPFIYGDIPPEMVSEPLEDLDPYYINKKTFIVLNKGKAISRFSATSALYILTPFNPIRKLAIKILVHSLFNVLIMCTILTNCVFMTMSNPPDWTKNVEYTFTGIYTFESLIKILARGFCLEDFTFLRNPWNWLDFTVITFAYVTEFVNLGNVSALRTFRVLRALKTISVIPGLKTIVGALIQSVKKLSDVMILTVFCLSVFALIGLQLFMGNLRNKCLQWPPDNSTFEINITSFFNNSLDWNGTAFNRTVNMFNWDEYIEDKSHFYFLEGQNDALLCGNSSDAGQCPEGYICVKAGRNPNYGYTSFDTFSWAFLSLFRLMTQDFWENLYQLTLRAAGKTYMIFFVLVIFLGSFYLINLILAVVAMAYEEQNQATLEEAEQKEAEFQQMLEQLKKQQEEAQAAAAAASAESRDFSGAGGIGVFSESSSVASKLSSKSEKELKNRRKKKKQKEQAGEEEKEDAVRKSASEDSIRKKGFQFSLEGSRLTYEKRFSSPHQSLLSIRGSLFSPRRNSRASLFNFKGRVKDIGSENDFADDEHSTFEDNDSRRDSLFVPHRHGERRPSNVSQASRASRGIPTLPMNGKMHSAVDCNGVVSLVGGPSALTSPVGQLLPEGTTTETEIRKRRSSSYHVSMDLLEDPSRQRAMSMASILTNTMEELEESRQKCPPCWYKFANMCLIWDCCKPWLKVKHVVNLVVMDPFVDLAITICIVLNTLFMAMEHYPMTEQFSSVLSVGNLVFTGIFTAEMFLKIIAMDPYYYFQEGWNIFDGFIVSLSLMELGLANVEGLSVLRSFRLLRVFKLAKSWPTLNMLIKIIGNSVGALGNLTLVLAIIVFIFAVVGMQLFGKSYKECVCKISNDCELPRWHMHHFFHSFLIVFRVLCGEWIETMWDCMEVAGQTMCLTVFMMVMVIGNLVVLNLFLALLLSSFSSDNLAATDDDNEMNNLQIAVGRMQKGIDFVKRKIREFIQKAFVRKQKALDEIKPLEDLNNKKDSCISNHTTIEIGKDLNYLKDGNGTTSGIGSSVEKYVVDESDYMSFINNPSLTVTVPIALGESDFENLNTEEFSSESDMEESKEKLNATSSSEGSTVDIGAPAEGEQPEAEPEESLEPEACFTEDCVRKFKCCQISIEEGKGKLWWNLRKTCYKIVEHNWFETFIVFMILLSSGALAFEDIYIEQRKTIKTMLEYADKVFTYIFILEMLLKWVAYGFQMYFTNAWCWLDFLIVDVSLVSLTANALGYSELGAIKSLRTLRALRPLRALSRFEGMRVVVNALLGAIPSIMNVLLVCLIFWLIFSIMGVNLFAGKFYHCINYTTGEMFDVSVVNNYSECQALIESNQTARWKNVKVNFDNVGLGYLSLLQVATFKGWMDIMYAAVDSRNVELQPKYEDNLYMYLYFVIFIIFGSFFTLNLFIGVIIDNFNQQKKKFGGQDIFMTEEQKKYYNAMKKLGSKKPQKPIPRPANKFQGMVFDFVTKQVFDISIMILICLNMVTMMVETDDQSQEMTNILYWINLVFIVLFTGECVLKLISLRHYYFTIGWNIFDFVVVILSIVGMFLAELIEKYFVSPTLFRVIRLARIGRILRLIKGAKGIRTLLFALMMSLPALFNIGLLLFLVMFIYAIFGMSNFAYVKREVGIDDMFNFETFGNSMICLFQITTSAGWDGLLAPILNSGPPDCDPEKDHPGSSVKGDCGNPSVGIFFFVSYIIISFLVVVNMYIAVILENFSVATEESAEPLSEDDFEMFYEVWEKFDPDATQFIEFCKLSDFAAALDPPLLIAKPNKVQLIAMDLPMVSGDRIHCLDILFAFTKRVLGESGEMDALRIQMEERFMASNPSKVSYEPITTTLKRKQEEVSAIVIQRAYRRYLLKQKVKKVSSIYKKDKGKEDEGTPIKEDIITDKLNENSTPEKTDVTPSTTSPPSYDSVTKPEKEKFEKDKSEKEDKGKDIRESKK

**Q.** What does the source list for `CC(C)C[C@H](NC(=O)[C@H](CCCNC(=N)N)NC(=O)[C@@H]1CCC(=O)N1)C(=O)N[C@H]1CSSC[C@@H]2NC(=O)[C@H](CCC(N)=O)NC(=O)[C@H](CCCNC(=N)N)NC(=O)[C@H](CO)NC(=O)[C@H](CCCNC(=N)N)NC(=O)[C@@H]3CSSC[C@@H](C(N)=O)NC(=O)[C@H](CSSC[C@H](NC1=O)C(=O)NCC(=O)N[C@@H](Cc1ccccc1)C(=O)N1C[C@H](O)C[C@H]1C(=O)N[C@@H](CCCCN)C(=O)N[C@@H](CO)C(=O)N3)NC(=O)[C@H](CCCNC(=N)N)NC(=O)[C@H](Cc1c[nH]cn1)NC(=O)[C@@H]1C[C@@H](O)CN1C(=O)[C@H](CCCCN)NC2=O`?
**A.** muscle twitching and action potentials on motor nerve stimulation (nerve-muscle preparation; entire nerve-muscle preparation exposed to toxin): completely abolished; propagation of action potentials in the motor axon (nerve-muscle preparation; excitatory post-synaptic responses still recorded): not blocked; reversibility in frog neuromuscular preparation compared with μ-GIIIA [1]: much more irreversibly; negative phase of the response (action potential in toxin-exposed segment D) ([1]; 1 μM, 23 minutes exposure): completely abolished; block of directly-evoked action potentials in frog muscle ([1]; 1 μM, toxin only in compartment D): blocks directly-evoked action potentials; recovery in segment D upon washing ([1]; washing for many hours in the absence of toxin): no recovery was observed; block of Na+ currents ([2]; 2 μM in the bath solution): abolished nearly all; block of whole cell currents (FIG. 4B legend) ([2]; 2 mM added to the bath solution): profound block; reversibility of block ([2]; wash with Normal Frog Ringers solution): reversible; effect on fish (fish): flaccid paralysis
